One molecule from publication PMC6162817, “Peptide Mimics of the Ribosomal P Stalk Inhibit the Activity of Ricin A Chain by Preventing Ribosome Binding” (Toxins, 2018) can be followed below.

The assay concerns the target Ricin A chain, wild-type, untagged recombinant (Ricinus communis, UniProt P02879 36-302). As to the kind of experiment: SPR. A general note: In SPR one partner is held on a chip, and binding of the other changes the refractive index at the surface.

For GFGLF [], the “fold KD against P5” value is > 20 fold.
